Measured values from several laboratories, pooled; numbers as filed in NIAID ChemDB.

Common to all: toxicity to cultured cells; endpoint: CC50

An empty or dashed field is not shown. Conditions beyond the fields shown may differ between rows. a–b is a range or a potency band. CCn is the concentration with n% toxicity to the cells.

SMILES,cells,read by,conditions,result
OCCOCCN1CCN(CCCN2c3ccccc3Sc3ccc(C(F)(F)F)cc32)CC1,VERO,-,-,20.93 µg/mL
Nc1cc(SCCOCP(=O)(O)O)nc(N)n1,CCRF-CEM,-,-,<10 µM
Cc1c(N)nc(C(CC(N)=O)NCC(N)C(N)=O)nc1C(=O)NC(C(=O)NC(C)C(O)CC(=O)NC(C(=O)NC(OC1OC(C)C(N)C(O)C1O)C(O)c1nc(-c2nc(C(=O)NCCC[S+](C)C)cs2)cs1)C(C)O)C(OC1OC(CO)C(O)C(O)C1OC1OC(CO)C(O)C(OC(N)=O)C1O)c1cnc[nH]1.Cl.Cl.Cl.[Cl-],VERO,-,-,20 µg/mL
COC(=O)[C@H]1[C@@H]2CON=C2c2cc3c(cc2[C@H]1C1=CC(=O)C(=O)C(OC)=C1)OCO3,HT-29,-,-,12 µM
Cc1cc2nc3cc(C)c(N)cc3[n+](-c3ccccc3)c2cc1N.[Cl-],VERO,-,-,15.62 µg/mL
COC1=CC([C@@H]2c3cc4c(cc3[C@H](O)[C@@H]3COC(=O)[C@H]32)OCO4)=CC(=O)C1=O,MEL-28,-,-,1.3 µM
CN[C@@H]1C[C@H](N)[C@@H](O)[C@H](O[C@@H]2O[C@H](CO)[C@H](O)[C@@H]3OC4(O[C@H]23)O[C@H]([C@@H](N)CO)[C@H](O)[C@H](O)[C@H]4O)[C@H]1O,HeLa,-,-,>100 µM
CC1C(=O)N(O)c2ncc(Br)cc2C1O,HepG2-NTCP-12,MTS,7 d,61.7 µM
COC(=O)[C@@H]1[C@H](c2cc(OC)c3nccnc3c2)c2cc3c(cc2C2=NOC[C@@H]21)OCO3,P-388,-,-,2.8 µM
Cc1cc(OCCOCP(=O)(O)O)nc(N)n1,HeLa S3,-,-,<10 µM
Nc1nc2c(ncn2CCC(CO)CO)c(=O)[nH]1,SupT1,-,-,170 µg/mL
Nc1nc(=O)n([C@@H]2CC[C@H](CO)O2)cc1F,BFU-E,-,-,10 µM
O=C(Nc1ccccc1-c1nn(C(=S)Nc2ccccc2)c(=S)n(C(=S)Nc2ccccc2)c1=O)C(F)(F)F,VERO,-,-,20 µg/mL
COc1cc([C@@H]2c3cc4c(cc3[C@H](OC(C)=O)[C@@H]3COC(=O)[C@@H]23)OCO4)cc(OC(C)=O)c1OC(C)=O,MEL-28,-,-,2.2 µM
N=c1c2c(ncn1N)Oc1c(c(-c3ccccc3)nn1-c1ccccc1)C2c1ccc(Cl)cc1,VERO,-,-,1.86 µg/mL
Nc1nc(=O)n([C@@H]2CS[C@H](CO)O2)cc1F,2.2.15,-,-,>200 µM
COC(=O)[C@@H]1[C@H](c2cc(OC)c3nc4cc(C)c(C)cc4nc3c2)c2cc3c(cc2C2=NOC[C@@H]21)OCO3,HT-29,-,-,1 µM
CNC(=O)c1ccc(NC(=O)Nc2ccc(C3=NCCN3)cc2)cc1NC(=O)Nc1cccc(C2=NCCN2)c1,VERO,-,-,38 µg/mL
Cc1c(N)nc([C@H](CC(N)=O)NC[C@H](N)C(N)=O)nc1C(=O)N[C@H](C(=O)N[C@H](C)[C@@H](O)[C@H](C)C(=O)N[C@H](C(=O)NCCc1nc(-c2nc(C(=O)NCCC[S+](C)C)cs2)cs1)[C@@H](C)O)C(O[C@@H]1O[C@@H](CO)[C@@H](O)[C@H](O)[C@@H]1O[C@H]1O[C@H](CO)[C@@H](O)[C@H](OC(N)=O)[C@@H]1O)c1cnc[nH]1,HeLa,-,-,>200 µg/mL
Nc1cc(OCCOCP(=O)(O)O)ncn1,L1210,-,-,<10 µM
C[C@H]1c2cccc(O)c2C(O)=C2C(=O)[C@]3(O)C(O)=C(C(N)=O)C(=O)[C@@H](N(C)C)[C@@H]3[C@@H](O)[C@@H]21,HeLa,-,-,>100 µM
Nc1cc(OCCOCP(=O)(O)O)nc(N)n1,CCRF-CEM,-,-,<10 µM
CC1OC(C)C(O)C2=C1C(=O)c1ccccc1C2=O,VERO,-,-,4.31 µg/mL
CCCCCCCCCCCCCCCC(=O)OCC(O)COC(=O)CCCCCCCCCCCCCCC,HeLa,-,-,50–100 µg/mL
O=c1c2ccccc2nc(-c2ccccc2)n1-c1nnc(C(F)(F)F)s1,VERO,-,-,1.16 µg/mL
Nc1ccn(C[C@H]2COP(=O)(O)CO2)c(=O)n1,SupT1,-,-,90 µg/mL
O=c1[nH]c(=O)n([C@H]2C[C@H](O)[C@@H](CO)O2)cc1/C=C/Br,TR-14,-,-,>200 µg/mL
NC1=NC2C(C=CN2CC(CO)CCO)C(=O)N1,CD4+ T lymphocytes,-,-,230 µg/mL
COC(=O)[C@H]1[C@H](O)[C@@H](C)[C@@H](O)[C@](C)(O)/C=C(\C)C2=C3C(=C(C)C(=O)c4c(O)c(c(C)c(OC(C)=O)c43)NC(=O)/C(C)=C/C=C\[C@@H](C)C(O)[C@@H](C)[C@H]1O)OCO2,VERO,-,-,65.6 µg/mL
CN(C)c1cc(=O)n(CCOCP(=O)(O)O)c(N)n1,CCRF-CEM,-,-,<10 µM
CN(C)c1ccc2nc3ccc(N)cc3[n+](-c3ccccc3)c2c1.[Cl-],VERO,-,-,19.8 µg/mL
CO[C@H]1[C@@H](OC(=O)/C=C/C=C/C=C/C=C/C(=O)O)CC[C@@]2(CO2)[C@@H]1[C@@]1(C)O[C@@H]1CC=C(C)C,HeLa,-,-,20 µg/mL
Nc1ncnc2c1ncn2[C@@H]1O[C@H](CO)C[C@@H]1O,U373-MG,-,-,37 µg/mL
Cc1ccc(S(=O)(=O)Oc2ccc3sc4c(CO)ccc(NCCN(C)C)c4c(=O)c3c2)cc1,VERO,-,-,2.51 µg/mL
CCCCCCCCCCCC(=O)OC[C@@H](O)COP(=O)([O-])OCC[N+](C)(C)C,HeLa,-,-,150 µg/mL
Cc1[nH]nc(C(=O)N/N=C/c2cccs2)c1N=NN(C)C,VERO,-,-,1.46 µg/mL
O=C(O)P(=O)(O)O,SupT1,-,-,134 µg/mL
CO[C@@H]1[C@@H](OC(N)=O)[C@@H](O)[C@H](Oc2ccc3c(O)c(NC(=O)c4ccc(O)c(CC=C(C)C)c4)c(=O)oc3c2C)OC1(C)C,HeLa,-,-,10 µg/mL
Cn1cc(NC(=O)c2cc(NC(=O)Nc3cc(C(=O)Nc4cc(C(=O)NCCC(N)=[NH2+])n(C)c4)n(C)c3)cn2C)cc1C(=O)NCCC(N)=[NH2+],VERO,-,-,130 µg/mL

A second listing of 6 rows from above:

{"SMILES": "COC(=O)[C@H]1[C@@H]2CON=C2c2cc3c(cc2[C@H]1C1=CC(=O)C(=O)C(OC)=C1)OCO3", "cells": "HT-29", "result": "12 µM"}
{"SMILES": "CC1OC(C)C(O)C2=C1C(=O)c1ccccc1C2=O", "cells": "VERO", "result": "4.31 µg/mL"}
{"SMILES": "COC1=CC([C@@H]2c3cc4c(cc3[C@H](O)[C@@H]3COC(=O)[C@H]32)OCO4)=CC(=O)C1=O", "cells": "MEL-28", "result": "1.3 µM"}
{"SMILES": "Cc1c(N)nc(C(CC(N)=O)NCC(N)C(N)=O)nc1C(=O)NC(C(=O)NC(C)C(O)CC(=O)NC(C(=O)NC(OC1OC(C)C(N)C(O)C1O)C(O)c1nc(-c2nc(C(=O)NCCC[S+](C)C)cs2)cs1)C(C)O)C(OC1OC(CO)C(O)C(O)C1OC1OC(CO)C(O)C(OC(N)=O)C1O)c1cnc[nH]1.Cl.Cl.Cl.[Cl-]", "cells": "VERO", "result": "20 µg/mL"}
{"SMILES": "Nc1nc2c(ncn2CCC(CO)CO)c(=O)[nH]1", "cells": "SupT1", "result": "170 µg/mL"}
{"SMILES": "O=c1c2ccccc2nc(-c2ccccc2)n1-c1nnc(C(F)(F)F)s1", "cells": "VERO", "result": "1.16 µg/mL"}